Data: article PMC9426601 (mBio, 2022)

How the values were obtained:
[1] = test system: A(H3N2) 100% PA/I38T; assay: antiviral treatment of infected ferrets; conditions: nasal washes 10 days, mean ± SD, tested form: phosphate
[2] = test system: A(H3N2) 100% WT; assay: antiviral treatment of infected ferrets; conditions: nasal washes 10 days, mean ± SD, tested form: phosphate

CCOC(=O)C1=C[C@@H](OC(CC)CC)[C@H](NC(C)=O)[C@@H](N)C1 [Oseltamivir, oseltamivir]
AUC (area under the curve of nasal wash viral titer) [1]: 16.5 · | AUC (area under the curve of nasal wash viral titer) [2]: 19.7 · | AUC (area under the curve of nasal wash viral titer) ([2]; listed as oseltamivir): 19.7 ± 2.7
